A mixed list of measured activities; the numbers were collected in NIAID ChemDB.

Common to all: growth or infection tests; species: Human cytomegalovirus; method: cytopathic effect; read-out: EC50

ECn: concentration that inhibits the pathogen or its effect by n%.

C[C@@H](O)C1=C[C@@H](n2cnc3c(N)ncnc32)[C@H](O)[C@@H]1O ; strain or isolate: AD-169 (100 PFU) ; cell line: HEL ; result: 1.35 µg/mL
CC(=O)N(C)c1ccc(Nc2cc(S(=O)(=O)O)c(N)c3c2C(=O)c2ccccc2C3=O)cc1 ; strain or isolate: AD169 ; cell line: HFF ; result: >200 µM
Nc1ncnc2c1ncn2[C@@H]1C[C@H](O)[C@@H](O)[C@H]1O ; strain or isolate: DAVIS (100 PFU) ; cell line: HEL ; result: 0.7 µg/mL
CC1=CC(S(=O)(=O)O)=C(Nc2cccc3c2C(=O)c2cccc(Nc4ccc(C)cc4S(=O)(=O)O)c2C3=O)CC1 ; strain or isolate: AD169 ; cell line: HFF ; result: 10 µM
Nc1ncnc2c1ncn2[C@@H]1C[C@H](c2ccccc2)[C@@H](O)[C@H]1O ; strain or isolate: AD-169 (100 PFU) ; cell line: HEL ; result: 60 µg/mL
Oc1cccc(O)c1O ; strain or isolate: DAVIS ; cell line: HEL ; result: 7.8 µg/mL
Nc1[nH]c(=O)nc2c1ncn2/C=C1/C[C@@H]1CO ; strain or isolate: AD169 ; cell line: HFF ; result: >85.8 µM
O=C(O)Cc1cc(O)ccc1O ; strain or isolate: DAVIS ; cell line: HEL ; result: 1.5 µg/mL
Nc1nccc2c1ncn2[C@@H]1C[C@H](CO)[C@@H](O)[C@H]1O ; strain or isolate: AD-169 (100 PFU) ; cell line: HEL ; result: 4.72 µg/mL
O=C(O)c1cc(O)c(O)c(O)c1 ; strain or isolate: AD169 ; cell line: HEL ; result: 3 µg/mL
Nc1nc(Cl)nc2c1ncn2/C=C1/CC1CO ; strain or isolate: AD169 ; cell line: HFF ; result: >0.8 µM
NC(=O)c1ncn([C@@H]2O[C@H](CO)[C@@H](O)[C@H]2O)n1 ; strain or isolate: DAVIS (100 PFU) ; cell line: HEL ; result: >100 µg/mL
Cc1c(CC(=O)O)ccc(O)c1O ; strain or isolate: DAVIS ; cell line: HEL ; result: >25 µg/mL
Nc1cc(S(=O)(=O)O)c(O)c2c1C(=O)c1c(O)c(S(=O)(=O)O)cc(N)c1C2=O ; strain or isolate: AD169 ; cell line: HFF ; result: >100 µM
Nc1[nH]c(=O)nc2c1ncn2/C=C1/C[C@H]1CO ; strain or isolate: AD169 ; cell line: HFF ; result: >85.8 µM
Nc1c(S(=O)(=O)O)cc(Nc2ccc(S(=O)(=O)O)c(Nc3nc(Cl)nc(Cl)n3)c2)c2c1C(=O)c1ccccc1C2=O ; strain or isolate: AD169 ; cell line: HFF ; result: 30 µM
Cc1cc(O)cc(O)c1CC(=O)O ; strain or isolate: DAVIS ; cell line: HEL ; result: >25 µg/mL
Nc1nccc2c1ncn2[C@@H]1O[C@H](CO)[C@@H](O)[C@H]1O ; strain or isolate: DAVIS (100 PFU) ; cell line: HEL ; result: 10 µg/mL
CN(C)Cc1ccc(Nc2ccc(N)c3c2C(=O)c2ccccc2C3=O)cc1 ; strain or isolate: AD169 ; cell line: HFF ; result: >10 µM

2 of the rows above, restated:

| SMILES | strain or isolate | cell line | result |
|---|---|---|---|
| Nc1nccc2c1ncn2[C@@H]1C[C@H](CO)[C@@H](O)[C@H]1O | AD-169 (100 PFU) | HEL | 4.72 µg/mL |
| CC(=O)N(C)c1ccc(Nc2cc(S(=O)(=O)O)c(N)c3c2C(=O)c2ccccc2C3=O)cc1 | AD169 | HFF | >200 µM |

Rows are shuffled and stem from different studies.